We go through one molecule from paper PMC8879871, “Chemical Synthesis of a Functional Fluorescent-Tagged α-Bungarotoxin” (Toxins, 2022).

For the experiment, the target named is T1, Cy5-α-bungarotoxin (synthetic fluorescent-tagged α-bungarotoxin) (Bungarus multicinctus).
T1 chain: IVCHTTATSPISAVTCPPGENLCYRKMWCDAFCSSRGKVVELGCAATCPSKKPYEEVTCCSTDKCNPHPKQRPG
Description: MST.

One may read the Kd as a measure of binding affinity in units of concentration. Lower therefore signals tighter binding. For GSGWRYYESSLEPYPDGSGK (biotin on the extra C-terminal K; free C-terminal acid (-OH)) [BSpep, GSGWRYYESSLEPYPDGSGK(biotin)-OH, 20-mer peptide mimicking the α-bungarotoxin binding site], the Kd came to 1.04 µM.
